# PubChem BioAssay AID1259414 | Drosophila RNAi Screening Center | 2018
# Assay: 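Fly genes that alter Wolbachia amount inside host cells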 (primary screen)
# Cells: Drosophila JW18 cells infected with Wolbachia
# Reagent: long dsRNA against Drosophila genes, 0.25 µg dsRNA per well of a 384-well plate
# Timing: 5 days
# Challenge: cells persistently infected with Wolbachia before knock-down; no added drug
# Measured: 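Automated imaging of bacterial rRNA staining divided by host cell count, reported as plate-normalised robust z-score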
# Direction: Wolbachia per cell robust z: higher = more Wolbachia per host cell than the plate typical
# Active means: 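Hit when robust z is 1.5 or more, or -1.5 or less, in at least two of three replicates; excludes dsRNAs with several or no targets, genes not expressed in JW18 and well A1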
# The deposit covers about 24,000 reagents; shown is a random part of those that have a named target and a result. Of all reagents, about 1,210 (5%) got an active call. 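Inactive calls also include excluded dsRNAs with several or no targets, genes unexpressed in JW18, and well A1, regardless of score.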 Unmarked entries are inactive. Reagents against one gene are numbered here. A plus sign joins genes that one reagent is predicted to hit.
predicted target,reagent,"Wolbachia per cell robust z, rep 1","Wolbachia per cell robust z, rep 2","Wolbachia per cell robust z, rep 3"
CG14767,1,-0.656,0.13,0.461
CG14767,2,-0.49,-0.906,-0.158
wds (will die slowly),1,-1.09,0.86,-0.938
ced-6,1,-1.25,-0.723,-0.496
ced-6,2,0.829,0.784,-3.79
Rab2,1,1.09,0.7,1.22
Rab2,2,1.04,0.577,0.233
Lim3,1,0.0422,0.498,-0.707
Lim3,2,-0.205,0.672,1.31
CG9962,1,0.951,0.341,0.841
CG9962,2,-8.29,-0.599,-0.134
CG9962,3,0.658,-0.352,0.103
Fur1 (Furin 1),1,0.0126,0.0565,0.625
Fur1 (Furin 1),2,1.72 (active),0.622,2.16
Fur1 (Furin 1),3,0.765,0.365,1.32
mri (mrityu),1,-1.77 (active),0.519,-4.66
mri (mrityu),2,0.36,0.131,0.431
CAH6 (Carbonic anhydrase 6),1,-1.1,-2.54,-4.06
CG46457,1,-0.291,-2.17,-0.809
spn-D (spindle D),1,0.369,0.601,-0.983
LysX (Lysozyme X),1,0.461,1.22,0.478
CG13443,1,0.504,0.214,0.858
HGTX,1,0.33,0.471,-0.314
HGTX,2,0.294,-1.52,-0.459
Grl40a (Gustatory receptor-like 40a),1,0.015,0.424,0.081
CG4627,1,-0.245 (active),-4.29,-2.39
pot (papillote),1,-4.26,0.812,-3.18
pot (papillote),2,-1.02,-0.239,1.7
SP555 + CG14042,1,0.217,0.175,-0.511
mRpS25 (mitochondrial ribosomal protein S25),1,-0.0581,0.55,-0.105
to (takeout),1,0.602,-0.452,0.385
to (takeout),2,0.544,-2.05,-2.83
Mesh1 (Metazoan SpoT homolog-1),1,-0.213,-0.291,-0.807
CG13299,1,0.424,1.17,-2.24
CG33109,1,-1.68,-0.253,-0.581
Mdh2 (Malate dehydrogenase 2),1,-0.411,-0.54,-1.92
CG4853,1,-2.37 (active),-1.89,-0.0191
CG4853,2,1.46,-0.757,0.321
CG14275,1,-0.2,0.724,-0.0851
CG14275,2,0.939,-0.262,-0.926
CG13884,1,-3.58,-0.981,-2.27
ZC3H3,1,3.27 (active),3.41,4.35
ZC3H3,2,-1.4,-0.727,-2.12
ZC3H3,3,5.16 (active),3.03,6.8
l(1)10Bb (lethal (1) 10Bb),1,2.45 (active),2.59,3.36
lncRNA:CR42850 (long non-coding RNA:CR42850),1,0.677,0.532,-0.379
Ire1 (Inositol-requiring enzyme-1),1,-1.29,-0.616,0.13
CaMKII (Calcium/calmodulin-dependent protein kinase II),1,-0.248,-0.585,0.208
CaMKII (Calcium/calmodulin-dependent protein kinase II),2,-0.695,0.646,0.477
spartin,1,0.612,0.845,-0.629
spartin,2,-2.7,-0.276,-0.578
CG13216,1,0.729,0.354,-3.45
RNASEK (Ribonuclease kappa),1,0.66,-0.83,0.388
CG4743,1,-1.58 (active),-2.14,-0.0537
asRNA:CR17025 + side-IV,1,-0.458,0.0368,-1.35
robl62A,1,-1.14,-0.0534,-0.181
Hsc70-5 (Heat shock protein 70 cognate 5),1,0.847,-3.58,2.43
Hsc70-5 (Heat shock protein 70 cognate 5),2,-0.183,0.339,-0.0504
Dop2R (Dopamine 2-like receptor),1,0.526,0.00627,-0.173
Dop2R (Dopamine 2-like receptor),2,0.487,1.31,0.855
Tab2 (TAK1-associated binding protein 2),1,0.241,-0.234,-2.4
cher (cheerio),1,-0.0773,1.3,0.11
cher (cheerio),2,-0.943,1.33,-0.249
cher (cheerio),3,-0.0523,0.336,0.418
azot (ahuizotl),1,0.992,-0.567,-0.352
azot (ahuizotl),2,-1.69,-3.75,-1.57
CG31848,1,-3.42,-1.86,-2.3
CG2291,1,0.0609,1.03,-1.31

A few values from the entries so far.
Under “Wolbachia per cell robust z, rep 2”, mri (mrityu) #1 shows 0.519 (active)
Result for spartin #2 in “Wolbachia per cell robust z, rep 1”: -2.7
Fur1 (Furin 1) #3, Wolbachia per cell robust z, rep 2 = 0.365
pot (papillote) #2, Wolbachia per cell robust z, rep 1 = -1.02
Under “Wolbachia per cell robust z, rep 1”, ced-6 #1 has -1.25
CG4627, Wolbachia per cell robust z, rep 1 = -0.245 (active)
